Experimental data as given in paper PMC6265244, “A synthetic microbial biosensor for high-throughput screening of lactam biocatalysts” (Nature Communications, 2018).

System: NCCCCCC(=O)O
Test: purified protein
Settings: 50 mM HEPES pH 7.5, 35 °C, 10 min, no cofactor or metal, cyclization to ε-caprolactam

## CF3HBD (Citrobacter freundii; Y152A)
  Km: 2900 ± 100 µM
  kcat: 0.00347 s⁻¹
  kcat/Km: 1.22 M⁻¹ s⁻¹
